Source: paper doi:10.1101/2024.08.19.608619, “Discovery of potent SARS-CoV-2 nsp3 macrodomain inhibitors uncovers lack of translation to cellular antiviral response” (bioRxiv, 2024)
A number of entries come with more than one value. The list is limited to them. An entry can have further records. Values that stand side by side differ for a reason that is not stated; some may be repeats, others may stem from another dose, organism or construct than stated.

Tested on: MERS-CoV
Assay: Vero E6/TMPRSS2 MERS-CoV antiviral effect with P-gp inhibitor
Type: cell-based

CC(C)[C@H](Nc1ncnc2[nH]ccc12)c1ccc2c(c1)S(=O)(=O)CCC2 [ASAP-0008674] was tested, and the EC50 was > 20 µM and > 5 µM and the perc_min_measured (minimum measured response of dose series) was 42.601%, 29.019%, 95.686%.
